According to paper PMC5764413, “Mutational analysis of Rift Valley fever phlebovirus nucleocapsid protein indicates novel conserved, functional amino acids” (2017):

Key:
Test in all cases: cross-linking
[1] = test system: RVFV MP12 N protein Y30A, N-terminal 6His-tag (p14-N), Rift Valley fever phlebovirus (RVFV), strain MP12, P21700 1-245
[2] = test system: RVFV MP12 N protein N181A, N-terminal 6His-tag (p14-N), Rift Valley fever phlebovirus (RVFV), strain MP12, P21700 1-245
[3] = test system: RVFV MP12 N protein F11A, N-terminal 6His-tag (p14-N), Rift Valley fever phlebovirus (RVFV), strain MP12, P21700 1-245
[4] = test system: RVFV MP12 N protein D34A, N-terminal 6His-tag (p14-N), Rift Valley fever phlebovirus (RVFV), strain MP12, P21700 1-245
[5] = test system: RVFV MP12 N protein F149A, N-terminal 6His-tag (p14-N), Rift Valley fever phlebovirus (RVFV), strain MP12, P21700 1-245

RVFV MP12 N protein Y30A, N-terminal 6His-tag (p14-N)
result [1]: binds

RVFV MP12 N protein N181A, N-terminal 6His-tag (p14-N)
result [2]: binds

RVFV MP12 N protein F11A, N-terminal 6His-tag (p14-N)
result [3]: binds

RVFV MP12 N protein D34A, N-terminal 6His-tag (p14-N)
result [4]: binds

RVFV MP12 N protein F149A, N-terminal 6His-tag (p14-N)
result [5]: binds
